PubChem BioAssay AID624099 – ICCB-Longwood – 2012

Screen: 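Host factors E2 relies on to silence an HPV18 LCR reporter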 (primary screen)
Cells: human C33A cervical carcinoma cells (HPV-negative) stably expressing BPV1 E2 and an HPV18 LCR luciferase reporter
Knock-down reagent: siRNA pool against human genes, 40 nM
Time to read-out: 72 h
Measured: 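HPV18 LCR reporter light per well, converted to plate-wise z-scores that exclude control wells, and averaged over triplicate plates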
Direction: mean z-score and z-score: higher = stronger reporter signal, weaker E2 silencing
Active means: 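Hit if mean z-score reaches 2 and two or more of three replicate z-scores also reach 2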
Here is a random part of about 21,000 reagents tested. Over the whole deposit, 497 (2.4%) were called active. 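Higher z means weaker E2 silencing; only reporter increases were scored, and knock-downs that hurt cell survival may mask genuine repressor factors.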 Reagent sequences are not shown.

Silencing of NPIPB3 resulted in: mean z-score 1.03; z-score, replicate A = 0.87; z-score, replicate B = 0.76; z-score, replicate C = 1.45; inactive.
Depletion of CDC42EP2 resulted in: mean z-score -0.38; z-score, replicate A = -0.14; z-score, replicate B = -0.6; z-score, replicate C = -0.41; inactive.
After knock-down of VAX1 the results were mean z-score -1.38; z-score, replicate A = -1.33; z-score, replicate B = -1.5; z-score, replicate C = -1.32; inactive.
Against STC2, the values are mean z-score -0.99; z-score, replicate A = -0.94; z-score, replicate B = -1.07; z-score, replicate C = -0.96; inactive.
Depletion of SUDS3P1 resulted in: mean z-score -1.34; z-score, replicate A = -1.62; z-score, replicate B = -1.21; z-score, replicate C = -1.2; inactive.
After knock-down of SDR16C5, the screen gave mean z-score -1.64; z-score, replicate A = -1.91; z-score, replicate B = -1.29; z-score, replicate C = -1.7; inactive.
VAMP3 showed mean z-score -0.52; z-score, replicate A = -0.6; z-score, replicate B = -0.36; z-score, replicate C = -0.6; inactive.

2 entries from above, reformatted:
{"gene":"NPIPB3","mean z-score":1.03,"z-score, replicate A":0.87,"z-score, replicate B":0.76,"z-score, replicate C":1.45,"Call":"inactive"}
{"gene":"CDC42EP2","mean z-score":-0.38,"z-score, replicate A":-0.14,"z-score, replicate B":-0.6,"z-score, replicate C":-0.41,"Call":"inactive"}

The listing continues:
Knock-down of GAK came out at: mean z-score 0.48; z-score, replicate A = 0.25; z-score, replicate B = 0.29; z-score, replicate C = 0.9; inactive.
Depletion of MRPL19 gave: mean z-score 0.24; z-score, replicate A = 0.07; z-score, replicate B = 0.16; z-score, replicate C = 0.49; inactive.
After knock-down of SLC18A2, the record shows mean z-score -0.04; z-score, replicate A = 0.24; z-score, replicate B = -0.14; z-score, replicate C = -0.24; inactive.
After knock-down of AKAP10, the screen gave mean z-score 1.38; z-score, replicate A = 1.28; z-score, replicate B = 1.42; z-score, replicate C = 1.44; inactive.
Against LOC390801 (retired record), the values are mean z-score 0.69; z-score, replicate A = 0.44; z-score, replicate B = 0.89; z-score, replicate C = 0.75; inactive.
